The assay has as its system Ebolavirus. Briefly: Antiviral activity against Ebolavirus like particle harboring full length EBOV Zaire wt/GIN/2014/ Kissidougou-C15 envelope glycoprotein and Influenzae virus envelope assessed as inhibition of viral infection in MDCK-SIAT1 cells after 48 hrs by e-GFP-based fluorescence assay.

Consider `CN(C)CCOc1ccc(/C(=C(/CCCl)c2ccccc2)c2ccccc2)cc1`, for which the IC50 was determined as 150 nM.

One may read the IC50 as the concentration at which inhibition is half-maximal.

(Values after ChEMBL document CHEMBL4184330 (J Med Chem, 2018).)
